Anti-infective test results gathered from many reports (values: NIAID ChemDB through PubChem).

Shared fields: growth or infection tests; organism: HIV-1; read by: cytopathic effect / XTT; read-out: inhibition

Two numbers with a dash give a range or band.

compound	cell line	dose	strain	value
CCCCCCCCCCCCCCc1sc(NC(=O)NCCc2ccccc2)nc1-c1ccc(Cl)cc1	MT-4	10 µg/mL		0%
N#CC1=C(N)N2C(=C(C#N)C1c1ccccc1)Oc1ccccc12	CEM	2.01 µM		4.67%
Nc1nc2c(ncn2[C@@H]2O[C@H](CO)C[C@@H]2F)c(=O)[nH]1	ATH-8 + ATH8	2 µM	LAI	25%
CCCCCCCCCCCCC(Br)C(=O)OC[C@H]1O[C@@H](n2cc(C)c(=O)[nH]c2=O)CC1O	CEM	20 µM		9.9%
Fc1cccc(Cl)c1CCNC(=S)Nc1nccs1	MT-4	10 µg/mL		52–100%
CCCCCCCCCCCCC(N=[N+]=[N-])C(=O)OC[C@H]1O[C@@H](n2cc(C)c(=O)[nH]c2=O)C[C@@H]1O	CEM	2 µM		9.6%
O=C(CSC1=NNC2(C(=O)N1)c1ccccc1-c1ccccc12)NC(=S)Nc1ccccc1	CEM	6.3 µM	RF	21.65%
O=[N+]([O-])c1ccc(C2ON=C(c3ccccc3)N2C23CC4CC(CC(C4)C2)C3)cc1	CEM	63 µM		38.33%
N#CC(C(=S)NCc1ccc(Cl)cc1)c1nc2ccccc2o1	CEM	6.34 µM		8.38%
CC(=O)N1C(=O)CC(=O)N(c2nnc(C)c(/C=C/c3ccc(N(C)C)cc3)n2)C1=S	CEM	0.317 µM		3.66%
O=C1N=C2SC=C(NC(=S)Nc3ccccc3)N2NC12c1ccccc1-c1ccccc12	CEM	63 µM		35.23%
COc1cccc(C2ON=C(c3ccccc3)N2C23CC4CC(CC(C4)C2)C3)c1	CEM	2 µM		34.38%
N#CC1=C(N)N2C(=C(C#N)C1c1ccc(Cl)cc1)Oc1ccccc12	CEM	0.635 µM		4.27%
O=C1N=C2SC=C(NC(=S)Nc3ccccc3)N2NC12c1ccccc1-c1ccccc12	CEM	63 µM	RF	35.23%
CC1=N/C(=C/c2cccc(Cl)c2)C(=O)N1n1c(-c2ccccc2)nc2ccccc2c1=O	CEM + CEM-SS	0.64 µM	RF	35%
C=CSC(NC(=O)[C@H](Cc1ccccc1)NS(=O)(=O)N1CCOCC1)C(=O)N[C@@H](CC1CCCCC1)[C@@H](O)C[C@H](C(=O)NCCCC)C(C)C	MT-2	13 µM	IIIB	0%
O=C(NCCc1ccccc1)Nc1ncccn1	MT-4	10 µg/mL		23%
c1ccc(C2SCc3nc4ncccc4n32)cc1	CEM	384 µM	RF	20%
O=C(NCCc1ccccc1)Nc1cncc(Cl)n1	MT-4	1 µg/mL		37–94%
NC1=NNC2(C(=O)N1)c1ccccc1-c1ccccc12	CEM	200 µM	RF	17%
Cc1cn([C@H]2C[C@H](O)[C@@H](COC(=O)CCCCCCCCCCBr)O2)c(=O)[nH]c1=O	CEM	2 µM		10.4%
Cc1cccc(C2ON=C(c3ccccc3)N2C23CC4CC(CC(C4)C2)C3)c1	CEM	2 µM		31.95%
O=C(NCCc1ccccc1)Nc1ccccn1	MT-4	100 µg/mL		6%
O=C(CSC1=NNC2(C(=O)N1)c1ccccc1-c1ccccc12)NC(=S)Nc1ccccc1	CEM	6.3 µM		21.65%
Clc1ccccc1C1SCc2nc3ncccc3n21	CEM	9.04 µM	RF	14%
Cc1nnc(N2C(=O)/C(=C/c3ccc(Cl)cc3)N=C2c2ccccc2)nc1/C=C/c1ccc(N(C)C)cc1	CEM	20 µM		58.08%
Cc1nnc(NC(=O)NCCc2ccccc2)s1	MT-4	100 µg/mL		20%
NC1=NNC2(C(N)=N1)c1ccccc1-c1ccccc12	CEM	20 µM		17.87%
O=C(O)C(SC1=NNC2(C(=O)N1)c1ccccc1-c1ccccc12)SC1=NNC2(C(=O)N1)c1ccccc1-c1ccccc12	CEM	20 µM	RF	36.96%
N#CC(C(=S)NCc1ccccc1)c1nc2ccccc2o1	CEM	20 µM		24.55%
CCCCCCCCCCCCCC(=O)OC[C@H]1O[C@@H](n2cc(C)c(=O)[nH]c2=O)C[C@@H]1O	CEM	20 µM		6.2%
N#C/C(=C1\SC(=O)CN1c1ccc(Cl)cc1)c1nc2ccccc2o1	CEM	20 µM		10.24%
Cc1nnc(NC(=S)Nc2ccccc2)nc1/C=C/c1ccc(N(C)C)cc1	CEM	0.2 µM		33.01%
CN1C(=O)[C@@H](Cc2ccccc2)NC1=S	MT-4	100 µg/mL		100%
Fc1cccc(C2ON=C(c3ccccc3)N2C23CC4CC(CC(C4)C2)C3)c1	CEM	6.3 µM		34.45%
O=C(O)CSC1=NNC2(C(=O)N1)c1ccccc1-c1ccccc12	CEM	63 µM		21.96%
Fc1ccccc1C1SCc2nc3ncccc3n21	CEM	95.9 µM	RF	17%
O=C(NCCc1ccccc1)NCc1ccoc1	MT-4	1 µg/mL		10%
Fc1cccc(C2SCc3nc4ncccc4n32)c1	CEM	4.2 µM	RF	15%
C=CCNC(=O)NC1=CSC2=NC(=O)C3(NN12)c1ccccc1-c1ccccc13	CEM	20 µM	RF	12.38%
N#Cc1ccc(C2ON=C(c3ccccc3)N2C23CC4CC(CC(C4)C2)C3)cc1	CEM	63 µM		39.24%
O=C(O)C(SC1=NNC2(C(=O)N1)c1ccccc1-c1ccccc12)SC1=NNC2(C(=O)N1)c1ccccc1-c1ccccc12	CEM	20 µM		36.96%
O=C1NC(SC(SC2=NNC3(C(=O)N2)c2ccccc2-c2ccccc23)=C(SC2=NNC3(C(=O)N2)c2ccccc2-c2ccccc23)SC2=NNC3(C(=O)N2)c2ccccc2-c2ccccc23)=NNC12c1ccccc1-c1ccccc12	CEM	63 µM	RF	37.76%

The first 4 rows once more:

compound | cell line | dose | strain | value
CCCCCCCCCCCCCCc1sc(NC(=O)NCCc2ccccc2)nc1-c1ccc(Cl)cc1 | MT-4 | 10 µg/mL |  | 0%
N#CC1=C(N)N2C(=C(C#N)C1c1ccccc1)Oc1ccccc12 | CEM | 2.01 µM |  | 4.67%
Nc1nc2c(ncn2[C@@H]2O[C@H](CO)C[C@@H]2F)c(=O)[nH]1 | ATH-8 + ATH8 | 2 µM | LAI | 25%
CCCCCCCCCCCCC(Br)C(=O)OC[C@H]1O[C@@H](n2cc(C)c(=O)[nH]c2=O)CC1O | CEM | 20 µM |  | 9.9%

Inhibition is in % at the dose shown (toxicity tests: loss of growth or viability). Rows are shuffled and stem from different studies. An empty or dashed field is not shown.